# Values from PubChem BioAssay AID504761 (Drosophila RNAi Screening Center, 2011)
# Aim: 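Insect host genes that dengue virus relies on to spread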 (primary screen)
# Cell system: D.Mel-2 cells from Drosophila
# Reagent: long dsRNA against Drosophila genes
# Conditions: infection with dengue virus type 2; dose and infection time not stated
# Measured: 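Cells stained for dengue envelope protein and imaged; percent of infected cells per well on duplicate plates, ranked by infection, with stained nuclei counted for cell number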
# Reading the numbers: infection score: higher = more virus-infected cells; cell count: higher = more cells in the well
# Call rule: 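Very low infection ranking in both replicate wells (chance probability at most 0.065), then a retest showing infection dropped 1.5-fold or more at p below 0.05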
# Meaning of the calls: active = confirmed: knock-down lowers infection; inactive = not picked or not confirmed
# The screen tested about 22,000 reagents; shown is a random part of those with a known target gene and a result. Over the whole deposit, 116 (0.52%) got an active call. 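Calls depend on retest data that are not deposited; infection was ranked per plate without normalising between plates; the unit of the infection score is not given.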 The raw values are shown without normalisation. Entries without a mark were called inactive. The numbers tell different reagents against one gene apart. Names joined by + are all predicted targets of the reagent. Not stated in the record: the amount of reagent, the time to read-out.
Target gene,dsRNA no.,"infection score, replicate 1","infection score, replicate 2","cell count, replicate 1","cell count, replicate 2"
CG4691,1,24.1,22.1,6288,6517
CG4691,2,17.1,3.72,5309,6133
dgt6,1,5.63,4.96,5777,6507
upSET,1,2.32,0.63,5686,6152
CG11089 + CG31381,1,5.49,4,6107,4130
CG11089 + CG31381,2,15.2,7.46,5604,6807
CG11089 + CG31381,3,17.7,5.4,6683,6476
CG8176,1,1.12,10.3,6045,5770
Pcp,1,7.09,8.41,6429,2807
CG17572,1,1.01,9.36,6546,6153
CG14860,1,15.1,22.5,5194,3081
CG14860,2,14.1,,4165,379
Cyp6d5,1,19.9,17,5763,5600
Cyp6d5,2,6.48,1.73,6548,5961
CG13068,1,0.53,4.6,6247,5785
CG13068,2,3.51,10.4,6515,5997
Task7,1,3.75,1.64,6688,6972
Task7,2,6.26,10.5,6010,5515
CG16953,1,5.88,4.79,6696,6304
RanBPM,1,14,12.9,6226,6735
RanBPM,2,2.18,7.14,6371,6219
CG13319,1,2.33,3.36,6058,6069
Bx,1,2.64,4.53,6369,5767
Bx,2,9.87,8.7,4317,5060

4 entries from above, limited to “infection score, replicate 1”.
CG14860 #1	15.1
CG14860 #2	14.1
Cyp6d5 #1	19.9
Cyp6d5 #2	6.48
